Pooled drug test results. Numbers come from NIAID ChemDB, via PubChem.

Common to all: growth or infection tests; agent: Candida tropicalis; endpoint: MIC80

MIC50, MIC90 and the like: level of inhibition, or share of isolates inhibited. Blank or dashed fields: not listed here. Conditions beyond the fields shown may differ between rows.

smiles,strain or isolate,method,result
Cc1ccc(NC(=O)CN(C)CC(O)(Cn2cncn2)c2ccc(F)cc2F)cc1C,,,4 µg/mL
CC(C)(C)c1ccc(/C=C2\SC(=O)N(CC(O)(Cn3nccn3)c3ccc(F)cc3F)C2=O)cc1,,,0.5 µg/mL
NN(Cc1ccccc1)CC(O)(Cn1cncn1)c1ccc(F)cc1F,ATCC 750,,0.125 µg/mL
Cc1cccc(C)c1N1C(=O)C=CC1=O,KKP 334,broth dilution,2 µg/mL
CCCCN(Cc1cn(Cc2ccccc2F)nn1)CC(O)(Cn1cncn1)c1ccc(F)cc1F,,,2 µg/mL
Cc1ccccc1/C=C1\SC(=O)N(CC(O)(Cn2nccn2)c2ccc(F)cc2F)C1=O,,,>100 µg/mL
N#Cc1ccc(/C=C/C(=O)OC2CCN(CC(O)(Cn3cncn3)c3ccc(F)cc3F)CC2)cc1,,broth dilution,0.127 µM
O=C(O/N=C(\CCn1ccnc1)c1ccccc1)c1cccc(Cl)c1,,agar diffusion,0.7069 µg/mL
CCCCN(Cc1cn(Cc2cccc(F)c2)nn1)CC(O)(Cn1cncn1)c1ccc(F)cc1F,,,<0.125 µg/mL
O=C1C=CC(=O)N1c1ccccc1,KKP 334,broth dilution,1 µg/mL
COc1ccc(/C(CCn2ccnc2)=N/OC(=O)c2ccc(Cl)cc2)cc1,,agar diffusion,0.3257 µg/mL
CC(=O)OC1CCN(CC(O)(Cn2cncn2)c2ccc(F)cc2F)CC1,,broth dilution,0.658 µM
Cc1ccc(-c2c3c(N)c4c(nc3nc3c2c(C)nn3-c2ccccc2)CCCCC4)cc1,CCC 131,broth dilution / absorbance,125 µg/mL
Cc1ccc(C(=O)O/N=C(\CCn2ccnc2)c2ccccc2)cc1,,agar diffusion,0.1876 µg/mL
CN(CC(=O)Nc1ccccc1[N+](=O)[O-])CC(O)(Cn1cncn1)c1ccc(F)cc1F,,,4 µg/mL
Cc1ccc(/C=C2\SC(=O)N(CC(O)(Cn3nccn3)c3ccc(F)cc3F)C2=O)c(C)c1,,,8.5 µg/mL
CCCCN(Cc1cn(Cc2ccccc2C#N)nn1)CC(O)(Cn1cncn1)c1ccc(F)cc1F,,,1 µg/mL
O=C1S/C(=C\c2ccccc2Br)C(=O)N1CC(O)(Cn1nccn1)c1ccc(F)cc1F,,,>100 µg/mL
CN(C)CCN1C(=O)C=CC1=O,KKP 334,broth dilution,64 µg/mL
O=C(/C=C/c1ccccc1Cl)OC1CCN(CC(O)(Cn2cncn2)c2ccc(F)cc2F)CC1,,broth dilution,0.124 µM
CCCCN(Cc1cn(Cc2cccc(Cl)c2)nn1)CC(O)(Cn1cncn1)c1ccc(F)cc1F,,,<0.125 µg/mL
O=C(O/N=C(\CCn1ccnc1)c1ccccc1)c1ccc(C(F)(F)F)cc1,,agar diffusion,0.3227 µg/mL
Cc1ccc(NC(=O)CN(C)CC(O)(Cn2cncn2)c2ccc(F)cc2F)cc1,,,64 µg/mL
O=C1C=CC(=O)N1c1ccc(Br)cc1,KKP 334,broth dilution,2 µg/mL
CN(CC(=O)Nc1ccc(C(C)(C)C)cc1)CC(O)(Cn1cncn1)c1ccc(F)cc1F,,,0.0625 µg/mL
O=C(/C=C/c1cccc(Br)c1)OC1CCN(CC(O)(Cn2cncn2)c2ccc(F)cc2F)CC1,,broth dilution,0.458 µM
C[C@@H](c1ncncc1F)[C@](O)(Cn1cncn1)c1ccc(F)cc1F,107,,0.03 µg/mL
Cc1ccc(/C=C/C(=O)OC2CCN(CC(O)(Cn3cncn3)c3ccc(F)cc3F)CC2)cc1,,broth dilution,0.032 µM
CCCCN(Cc1cn(Cc2c(Cl)cccc2Cl)nn1)CC(O)(Cn1cncn1)c1ccc(F)cc1F,,,8 µg/mL
O=C(OC1CCN(CC(O)(Cn2cncn2)c2ccc(F)cc2F)CC1)C(F)(F)Cl,,broth dilution,2.222 µM
CC(C)(C)N1C(=O)C=CC1=O,KKP 334,broth dilution,0.5 µg/mL
O=C(/C=C/c1cccc(Cl)c1)OC1CCN(CC(O)(Cn2cncn2)c2ccc(F)cc2F)CC1,,broth dilution,0.498 µM
CC(C)(C)c1ccccc1N1C(=O)C=CC1=O,KKP 334,broth dilution,1 µg/mL

A second listing of 4 rows from above:

smiles,strain or isolate,method,result
CCCCN(Cc1cn(Cc2ccccc2F)nn1)CC(O)(Cn1cncn1)c1ccc(F)cc1F,,,2 µg/mL
O=C(/C=C/c1ccccc1Cl)OC1CCN(CC(O)(Cn2cncn2)c2ccc(F)cc2F)CC1,,broth dilution,0.124 µM
CN(CC(=O)Nc1ccc(C(C)(C)C)cc1)CC(O)(Cn1cncn1)c1ccc(F)cc1F,,,0.0625 µg/mL
CN(C)CCN1C(=O)C=CC1=O,KKP 334,broth dilution,64 µg/mL